Laboratory results published in publication PMC7867265, “Phosphofructokinases A and B from Mycobacterium tuberculosis Display Different Catalytic Properties and Allosteric Regulation” (International Journal of Molecular Sciences, 2021).

Assays:
Test in all cases: purified protein
Settings in all cases: pH 7.4; 37.0 °C
[1] = test system: Nc1ncnc2c1ncn2[C@@H]1O[C@H](COP(=O)(O)OP(=O)(O)OP(=O)(O)O)[C@@H](O)[C@H]1O
[2] = test system: Nc1nc2c(ncn2[C@@H]2O[C@H](COP(=O)(O)OP(=O)(O)O)[C@@H](O)[C@H]2O)c(=O)[nH]1
[3] = test system: Nc1ncnc2c1ncn2[C@@H]1O[C@H](COP(=O)(O)OP(=O)(O)O)[C@@H](O)[C@H]1O
[4] = test system: O=c1[nH]cnc2c1ncn2[C@@H]1O[C@H](COP(=O)(O)OP(=O)(O)O)[C@@H](O)[C@H]1O

| Substance | K0.5 [1] | Km [2] | Vmax [2] | Vmax/Km [2] | Km [3] | Vmax [3] | Vmax/Km [3] | Vmax [1] | Vmax/Km [1] | Km [4] | Vmax [4] | Vmax/Km [4] |
| --- | --- | --- | --- | --- | --- | --- | --- | --- | --- | --- | --- | --- |
| Pfk A (Mycobacterium tuberculosis H37Rv) | 1.0 ± 0.2 mM |  |  |  |  |  |  |  |  |  |  |  |
| Pfk B (Mycobacterium tuberculosis H37Rv) | 0.052 ± 0.005 mM | 280 ± 30 µM | 0.32 µmol/min/mg | 1100 µL/min/mg | 12900 ± 3000 µM | 3.6 µmol/min/mg | 140 µL/min/mg | 0.8 µmol/min/mg | 15000 µL/min/mg | 270 ± 50 µM | 0.37 µmol/min/mg | 1400 µL/min/mg |
